In one data set the test system is milk solids. Kind of data set: Protein precipitation of raw milk under CO2 pressure (percentage precipitated solids). The settings on record: for precipitation: 5° C. The format is physicochemical.
In a further data set the test system is casein. The settings on record: cited from earlier work.

Structures are written as SMILES.

Regarding `O=C=O` [CO2, carbon dioxide], the precipitation result was “could not be detected” with milk solids (pressures of less than 2067 kPa, even after 60 min) and “did not cause detectable precipitation” with milk solids (689 kPa for 60 min, 1378 kPa for 30 min, 2757 kPa for 5 min, 3446 kPa for 5 min). Moreover, the precipitated solids in the data set on milk solids (2067 kPa (300 psi), 30 min) is given as 2.6 % (w/w). Also, the “precipitation of milk solids” value with milk solids (CO2 pressures greater than 1378 kPa (200 psi), 15 to 60 min, 20° C.) is “more than 1%”. Further, the “precipitation of casein proteins from milk” value with casein (38° C., pressures above 5514 kPa (about 800 psi)) is listed as “complete precipitation”. The “precipitation of skim milk casein” value in the data set on casein (3515 kPa, 50° C. (Jordan et al., 1987)) was 99%. For the same molecule, the “raw skim milk caseins precipitated” value with casein (CO2 pressures above 1998 kPa, 3 h, 40° C. (Calvo and Bacones, 2001)) is on record as 85%. For the same molecule, the casein precipitation entry in the data set on casein (CO2 pressures between 2757 and 5514 kPa, 38 to 49° C. (Tomasula, 1995)) was “complete casein precipitation”.

These data come from US8563067B2, “Extended shelf life and bulk transport of perishable organic liquids with low pressure carbon dioxide” (Cornell Research Foundation, Inc., priority 2004, dated 2013).
